{"sequences": {"note": "Chains of the proteins cited; added tags and fusions are not shown. Residues count along the entry.", "UniProt Q45894, 1-425": "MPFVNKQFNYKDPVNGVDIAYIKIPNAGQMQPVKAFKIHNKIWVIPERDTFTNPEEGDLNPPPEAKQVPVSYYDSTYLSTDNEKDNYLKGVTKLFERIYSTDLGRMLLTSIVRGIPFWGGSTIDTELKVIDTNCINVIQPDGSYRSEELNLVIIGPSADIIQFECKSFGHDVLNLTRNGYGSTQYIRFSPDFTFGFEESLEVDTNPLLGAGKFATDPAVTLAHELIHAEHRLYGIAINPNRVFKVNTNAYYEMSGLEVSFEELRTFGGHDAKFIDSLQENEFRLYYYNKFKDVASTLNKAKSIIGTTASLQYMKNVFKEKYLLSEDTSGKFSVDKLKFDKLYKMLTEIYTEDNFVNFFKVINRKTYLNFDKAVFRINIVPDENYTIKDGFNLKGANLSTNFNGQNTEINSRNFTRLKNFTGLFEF"}, "source": "BindingDB's records for 18221310", "about": "(Burnham Institute For Medical Research, 2008)", "data": [{"target": "Botulinum neurotoxin type A2 [1-425] (Clostridium botulinum, UniProt Q45894)", "units": {"IC50": "µM"}, "values": [{"compound": "CC1Cc2cc(-c3nn(-c4ccccc4)cc3/C=C3\\SC(=S)N(CCS(=O)(=O)O)C3=O)ccc2O1", "note": "(stereo unspecified)", "IC50": "> 200"}, {"compound": "CCOc1ccc(-c2nn(-c3ccccc3)cc2/C=C2\\SC(=S)N(CC(=O)O)C2=O)c(C)c1", "IC50": 130}, {"compound": "CCOc1ccc(-c2nn(-c3ccccc3)cc2/C=C2\\SC(=S)N(CC(=O)O)C2=O)cc1F", "IC50": "> 200"}, {"compound": "COc1ccc(-c2nn(-c3ccccc3)cc2/C=C2\\SC(=S)N(CCS(=O)(=O)O)C2=O)cc1", "IC50": "> 200"}, {"compound": "O=C(O)C(c1ccccc1)N1C(=O)/C(=C/c2ccc(-c3ccc(Cl)cc3Cl)o2)SC1=S", "note": "(stereo unspecified)", "IC50": "> 200"}, {"compound": "O=C(O)CN1C(=O)/C(=C/c2cn(-c3ccccc3)nc2-c2ccc(S(=O)(=O)N3CCOCC3)cc2)SC1=S", "IC50": "> 200"}, {"compound": "O=C(O)CN1C(=O)/C(=C/c2cn(-c3ccccc3)nc2-c2cccs2)SC1=S", "IC50": 160}, {"compound": "O=C(O)CN1C(=O)/C(=C2/C(=O)N(CC(=O)Nc3cccc(Cl)c3)c3ccccc32)SC1=S", "IC50": "> 200"}, {"compound": "O=C1/C(=C/c2cn(-c3ccccc3)nc2-c2ccc(Cl)cc2)SC(=S)N1CCS(=O)(=O)O", "IC50": 26.4}, {"compound": "O=C1/C(=C/c2cn(-c3ccccc3)nc2-c2ccc(OCc3ccc(Cl)cc3)cc2)SC(=S)N1CCS(=O)(=O)O", "IC50": "> 200"}, {"compound": "O=C1/C(=C/c2cn(-c3ccccc3)nc2-c2ccc(S(=O)(=O)N3CCCCC3)cc2)SC(=S)N1CCS(=O)(=O)O", "IC50": 20.1}, {"compound": "O=C1/C(=C/c2cn(-c3ccccc3)nc2-c2ccc(S(=O)(=O)N3CCOCC3)cc2)SC(=S)N1CCS(=O)(=O)O", "IC50": 85}, {"compound": "O=C(O)CN1C(=O)C(=Cc2c[nH]nc2-c2ccc(C(F)(F)F)cc2)SC1=S", "note": "[2-[(5Z)-4-oxo-2-sulfanylidene-5-({3-[4-(trifluoromethyl)phenyl]-1H-pyrazol-4-yl}methylidene)-1,3-thiazolidin-3-yl]acetic acid]", "IC50": "> 200"}, {"compound": "O=C(O)CN1C(=O)/C(=C/c2cc3nccnc3s2)SC1=S", "note": "[2-[(5Z)-4-oxo-2-sulfanylidene-5-{thieno[2,3-b]pyrazin-6-ylmethylidene}-1,3-thiazolidin-3-yl]acetic acid]", "IC50": "> 200"}, {"compound": "O=C(O)CN1C(=O)/C(=C/c2cc(-c3ccccc3)on2)SC1=S", "note": "[2-[(5Z)-4-oxo-5-[(5-phenyl-1,2-oxazol-3-yl)methylidene]-2-sulfanylidene-1,3-thiazolidin-3-yl]acetic acid]", "IC50": "> 200"}, {"compound": "O=C(O)CN1C(=O)/C(=C/c2cccc(-n3cccn3)c2)SC1=S", "note": "[2-[(5Z)-4-oxo-5-{[3-(1H-pyrazol-1-yl)phenyl]methylidene}-2-sulfanylidene-1,3-thiazolidin-3-yl]acetic acid]", "IC50": "> 200"}, {"compound": "O=C(O)CN1C(=O)/C(=C/c2cccc(N3CCCC3)c2)SC1=S", "note": "[2-[(5Z)-4-oxo-5-{[3-(pyrrolidin-1-yl)phenyl]methylidene}-2-sulfanylidene-1,3-thiazolidin-3-yl]acetic acid]", "IC50": "> 200"}, {"compound": "O=C(O)CN1C(=O)/C(=C/c2csc3ccccc23)SC1=S", "note": "[2-[(5Z)-5-(1-benzothiophen-3-ylmethylidene)-4-oxo-2-sulfanylidene-1,3-thiazolidin-3-yl]acetic acid]", "IC50": "> 200"}, {"compound": "O=C(O)CN1C(=O)/C(=C/c2c[nH]c3ccccc23)SC1=S", "note": "[2-[(5Z)-5-(1H-indol-3-ylmethylidene)-4-oxo-2-sulfanylidene-1,3-thiazolidin-3-yl]acetic acid]", "IC50": "> 200"}, {"compound": "O=C(O)CN1C(=O)/C(=C/c2ccc3c(c2)OCO3)SC1=S", "note": "[2-[(5Z)-5-(2H-1,3-benzodioxol-5-ylmethylidene)-4-oxo-2-sulfanylidene-1,3-thiazolidin-3-yl]acetic acid]", "IC50": "> 200"}, {"compound": "O=C(O)CN1C(=O)/C(=C/c2sc(Br)c3c2OCCO3)SC1=S", "note": "[2-[(5Z)-5-({7-bromo-2H,3H-thieno[3,4-b][1,4]dioxin-5-yl}methylidene)-4-oxo-2-sulfanylidene-1,3-thiazolidin-3-yl]acetic acid]", "IC50": "> 200"}, {"compound": "Cc1nc(/C=C2\\SC(=S)N(CC(=O)O)C2=O)c(C)o1", "note": "[2-[(5Z)-5-[(2,5-dimethyl-1,3-oxazol-4-yl)methylidene]-4-oxo-2-sulfanylidene-1,3-thiazolidin-3-yl]acetic acid]", "IC50": "> 200"}, {"compound": "Cc1nc(-c2ccccc2)c(/C=C2\\SC(=S)N(CC(=O)O)C2=O)s1", "note": "[2-[(5Z)-5-[(2-methyl-4-phenyl-1,3-thiazol-5-yl)methylidene]-4-oxo-2-sulfanylidene-1,3-thiazolidin-3-yl]acetic acid]", "IC50": "> 200"}, {"compound": "Cc1ccc2cc(/C=C3\\SC(=S)N(CC(=O)O)C3=O)ccc2n1", "note": "[2-[(5Z)-5-[(2-methylquinolin-6-yl)methylidene]-4-oxo-2-sulfanylidene-1,3-thiazolidin-3-yl]acetic acid]", "IC50": "> 200"}, {"compound": "O=C(O)CN1C(=O)/C(=C/c2c[nH]c3ccc(Br)cc23)SC1=S", "note": "[2-[(5Z)-5-[(5-bromo-1H-indol-3-yl)methylidene]-4-oxo-2-sulfanylidene-1,3-thiazolidin-3-yl]acetic acid]", "IC50": "> 200"}, {"compound": "O=C(O)CN1C(=O)/C(=C/c2cccc(Br)n2)SC1=S", "note": "[2-[(5Z)-5-[(6-bromopyridin-2-yl)methylidene]-4-oxo-2-sulfanylidene-1,3-thiazolidin-3-yl]acetic acid]", "IC50": "> 200"}, {"compound": "O=C(O)CN1C(=O)/C(=C/c2cccc3c2oc2ccccc23)SC1=S", "note": "[2-[(5Z)-5-{8-oxatricyclo[7.4.0.0^{2,7}]trideca-1(9),2,4,6,10,12-hexaen-6-ylmethylidene}-4-oxo-2-sulfanylidene-1,3-thiazolidin-3-yl]acetic acid]", "IC50": 160}, {"compound": "CN1CCCN(c2ccc(/C=C3\\SC(=S)N(CC(=O)O)C3=O)cc2)CC1", "note": "[2-[(5Z)-5-{[4-(4-methyl-1,4-diazepan-1-yl)phenyl]methylidene}-4-oxo-2-sulfanylidene-1,3-thiazolidin-3-yl]acetic acid]", "IC50": "> 50"}, {"compound": "O=C(O)CN1C(=O)/C(=C/c2cc(-c3ccc(Br)cc3)on2)SC1=S", "note": "[2-[(5Z)-5-{[5-(4-bromophenyl)-1,2-oxazol-3-yl]methylidene}-4-oxo-2-sulfanylidene-1,3-thiazolidin-3-yl]acetic acid]", "IC50": "> 200"}, {"compound": "O=C(O)CN1C(=O)/C(=C/c2cc(-c3ccc(Cl)cc3)on2)SC1=S", "note": "[2-[(5Z)-5-{[5-(4-chlorophenyl)-1,2-oxazol-3-yl]methylidene}-4-oxo-2-sulfanylidene-1,3-thiazolidin-3-yl]acetic acid]", "IC50": 82.7}, {"compound": "O=C(O)CN1C(=O)C(=Cc2cc(-c3ccc(Cl)cc3)n[nH]2)SC1=S", "note": "[2-[(5Z)-5-{[5-(4-chlorophenyl)-1H-pyrazol-3-yl]methylidene}-4-oxo-2-sulfanylidene-1,3-thiazolidin-3-yl]acetic acid]", "IC50": "> 200"}, {"compound": "O=C1/C(=C/c2ccc(-c3ccc(Cl)cc3)o2)SC(=S)N1CCS(=O)(=O)O", "note": "[2-[(5Z)-5-{[5-(4-chlorophenyl)furan-2-yl]methylidene}-4-oxo-2-sulfanylidene-1,3-thiazolidin-3-yl]ethane-1-sulfonic acid]", "IC50": "> 200"}, {"compound": "O=C(O)CN1C(=O)/C(=C/c2cc(-c3ccc(F)cc3)on2)SC1=S", "note": "[2-[(5Z)-5-{[5-(4-fluorophenyl)-1,2-oxazol-3-yl]methylidene}-4-oxo-2-sulfanylidene-1,3-thiazolidin-3-yl]acetic acid]", "IC50": "> 200"}, {"compound": "COc1ccc(-c2cc(/C=C3\\SC(=S)N(CC(=O)O)C3=O)no2)cc1", "note": "[2-[(5Z)-5-{[5-(4-methoxyphenyl)-1,2-oxazol-3-yl]methylidene}-4-oxo-2-sulfanylidene-1,3-thiazolidin-3-yl]acetic acid]", "IC50": 194}, {"compound": "Cc1ccc(-c2cc(/C=C3\\SC(=S)N(CC(=O)O)C3=O)no2)cc1", "note": "[2-[(5Z)-5-{[5-(4-methylphenyl)-1,2-oxazol-3-yl]methylidene}-4-oxo-2-sulfanylidene-1,3-thiazolidin-3-yl]acetic acid]", "IC50": 130}, {"compound": "O=C(O)CN1C(=O)/C(=C/c2cc(-c3ccco3)on2)SC1=S", "note": "[2-[(5Z)-5-{[5-(furan-2-yl)-1,2-oxazol-3-yl]methylidene}-4-oxo-2-sulfanylidene-1,3-thiazolidin-3-yl]acetic acid]", "IC50": "> 200"}, {"compound": "O=C1/C(=C/c2cn(-c3ccccc3)nc2-c2ccccc2)SC(=S)N1C1CCS(=O)(=O)C1", "note": "(stereo unspecified) [3-[(5Z)-5-[(1,3-diphenyl-1H-pyrazol-4-yl)methylidene]-4-oxo-2-sulfanylidene-1,3-thiazolidin-3-yl]--thiolane-1,1-dione]", "IC50": "> 200"}, {"compound": "O=C1/C(=C/c2cn(-c3ccccc3)nc2-c2ccc(Cl)cc2)SC(=S)N1C1CCS(=O)(=O)C1", "note": "(stereo unspecified) [3-[(5Z)-5-{[3-(4-chlorophenyl)-1-phenyl-1H-pyrazol-4-yl]methylidene}-4-oxo-2-sulfanylidene-1,3-thiazolidin-3-yl]--thiolane-1,1-dione]", "IC50": "> 200"}, {"compound": "O=C1/C(=C/c2ccc(-c3cccc(Cl)c3Cl)o2)SC(=S)N1C1CCS(=O)(=O)C1", "note": "(stereo unspecified) [3-[(5Z)-5-{[5-(2,3-dichlorophenyl)furan-2-yl]methylidene}-4-oxo-2-sulfanylidene-1,3-thiazolidin-3-yl]--thiolane-1,1-dione]", "IC50": "> 200"}, {"compound": "O=C1/C(=C/c2ccc(-c3ccc(Cl)cc3Cl)o2)SC(=S)N1C1CCS(=O)(=O)C1", "note": "(stereo unspecified) [3-[(5Z)-5-{[5-(2,4-dichlorophenyl)furan-2-yl]methylidene}-4-oxo-2-sulfanylidene-1,3-thiazolidin-3-yl]--thiolane-1,1-dione]", "IC50": "> 100"}, {"compound": "O=C1/C(=C/c2ccc(-c3cc(Cl)ccc3Cl)o2)SC(=S)N1CC1CCCO1", "note": "(stereo unspecified) [(5Z)-5-{[5-(2,5-dichlorophenyl)furan-2-yl]methylidene}-3-(oxolan-2-ylmethyl)-2-sulfanylidene-1,3-thiazolidin-4-one]", "IC50": "> 50"}]}]}
